Results of unrelated studies side by side (data: NIAID ChemDB).

Common to all: whole-cell or culture tests; species: HIV-1; endpoint: EC50

Conditions beyond the fields shown may differ between rows.

CC(C)=CCOc1cc(NC(=S)c2ccoc2C)ccc1Cl ; strain or isolate: NL4-3 ; cells: CEM + CEM-SS ; read by: p24 ; result: 0.006 µM
C[C@@H]1CN(C(=O)c2ccccc2)CCN1C(=O)C(=O)c1c[nH]c2c(NC(=O)NCCCCNC(=O)Nc3cccc(B(O)O)c3)cccc12 ; cells: HeLa ; read by: luciferase / reporter gene ; result: <1 µM
C[C@H]1[C@H](O)[C@@H](C)/C=C/C=C/C=C/C=C/C=C/C=C/C=C/[C@H](O[C@@H]2O[C@H](C)[C@@H](O)[C@H](N)[C@@H]2O)C[C@@H]2O[C@](O)(C[C@@H](O)C[C@@H](O)CC[C@H](O)[C@@H](O)C[C@@H](O)CC(=O)O[C@H]1C)C[C@H](O)[C@H]2C(=O)O ; strain or isolate: MDR3761 Primary isolate X4 (SI) ; cells: PBMC ; read by: p24 / RT activity ; result: 1.6 µM
Cc1ccc(-n2c(C)nnc2SCC(=O)Nc2ccc(C)cc2Cl)cc1 ; strain or isolate: NL4-3 ; changes: RT-K103N Y181C ; cells: HeLa + HeLa-JC53 ; read by: luciferase ; result: 0.17 µM
Cc1nc2ccccc2c(-c2cccc(O)c2)c1C(OC(C)C)C(=O)O ; cells: C8166 ; read by: luciferase / reporter gene ; result: <20 µM
COc1ccnc2[nH]cc(C(=O)C(=O)N3C4CC3CN(C(=O)c3ccccc3)C4)c12 ; strain or isolate: SF162 ; cells: TZM-bl ; read by: luciferase ; result: 140 µM
CN(C)c1ccc(-n2c(SCC(=O)Nc3ccc(S(N)(=O)=O)cc3Cl)nnc2C(F)(F)F)c2ccccc12 ; strain or isolate: NL4-3 ; changes: RT-Y188L ; cells: HeLa + HeLa-JC53 ; read by: luciferase ; result: 0.007 µM
COCc1nc(Nc2ccc(C#N)cc2)nc(Nc2c(C)cc(/C=C/C#N)cc2C)c1C(=O)NC1CC1 ; strain or isolate: MDR ; cells: MT4 CMV-EGFP ; result: 0.141 µM
C[C@@H]1CN(C(=O)c2ccccc2)CCN1C(=O)C(=O)c1c[nH]c2c(NC(=O)NCCC(=O)O)cccc12 ; cells: HeLa ; read by: luciferase / reporter gene ; result: <1 µM
COCc1nc(Nc2ccc(C#N)cc2)nc(Nc2c(C)cc(/C=C/C#N)cc2C)c1C(=O)NCc1cccnc1 ; strain or isolate: MDR ; cells: MT4 CMV-EGFP ; result: 0.0851 µM
COc1cnc(-n2cnc(C)n2)c2[nH]cc(C(=O)C(=O)N3CCC(=C(c4ccccc4)c4cnn(Cc5ccccc5)c4)CC3)c12 ; cells: HeLa ; read by: luciferase ; result: <1 µM
Cc1ccc(-n2c(C)nnc2SCC(=O)Nc2ccccc2Br)c2ccccc12 ; strain or isolate: NL4-3 ; changes: RT-Y188L ; cells: HeLa + HeLa-JC53 ; read by: luciferase ; result: 0.069 µM
COc1cnc(Cl)c2[nH]cc(C(=O)C(=O)N3CCC(=C(F)c4ccccc4)CC3)c12 ; cells: HeLa ; read by: luciferase ; result: <1 µM
COc1ccc(N(C)C(=O)[C@H](Cc2ccccc2)NC(=O)c2cncc(C(=O)N[C@@H](Cc3ccccc3)C(=O)N(C)c3ccc(OC)cc3)c2)cc1 ; strain or isolate: NL4-3 ; cells: MT-2 ; read by: luciferase ; result: 0.02 µM
CCN(CC)S(=O)(=O)c1ccc(NC(=O)Nc2cccc3c(C(=O)C(=O)N4CCC(=C(C#N)c5ccccc5)CC4)c[nH]c23)cc1 ; cells: HeLa ; read by: luciferase / reporter gene ; result: <1 µM
CCOc1ccc(N(CC)C(=O)[C@H](Cc2ccccc2)NC(=O)NS(=O)(=O)N[C@@H](Cc2ccccc2)C(=O)N(CC)c2ccc(OCC)cc2)cc1 ; strain or isolate: NL4-3 ; cells: MT-2 ; read by: luciferase ; result: 0.15 µM
C[C@@H]1CN(C(=O)c2ccccc2)CCN1C(=O)C(=O)c1cn(S(C)(=O)=O)c2c(NS(C)(=O)=O)cccc12 ; cells: HeLa ; read by: luciferase / reporter gene ; result: <1 µM
COc1ncc(OC)c2c(C(=O)C(=O)N3CCC(=C(c4ccccc4)c4ccccn4)CC3)c[nH]c12 ; cells: HeLa ; read by: luciferase ; result: <1 µM
C=CCC(C(=O)O)c1c(C)nc2ccc(Br)cc2c1-c1ccc(Cl)cc1 ; cells: C8166 ; read by: luciferase / reporter gene ; result: <20 µM
C[C@@H]1CN(C(=O)c2ccccc2)CCN1C(=O)C(=O)c1c[nH]c2c(NC(=O)[C@H]3OC(C)(C)O[C@@H]3C(=O)O)cccc12 ; cells: HeLa ; read by: luciferase / reporter gene ; result: <1 µM
C=CCN(C(=O)[C@H](Cc1cc(F)cc(F)c1)NS(=O)(=O)NS(=O)(=O)N[C@@H](Cc1cc(F)cc(F)c1)C(=O)N(CC=C)c1ccc(OC)cc1)c1ccc(OC)cc1 ; strain or isolate: NL4-3 ; cells: MT-2 ; read by: luciferase ; result: 2.56 µM
Cc1ccc(-c2ccc3c(c2)C=C(C(=O)Nc2ccc(C[N+](C)(C)C4CCOCC4)cc2)CCC3)cc1 ; strain or isolate: TB2 CLADE C ; cells: PBMC ; read by: p24 ; result: <1 µM
CCCC(C(=O)O)c1c(-c2ccc(Cl)cc2)c2cc(Cl)ccc2n(CCN)c1=O ; cells: C8166 ; read by: luciferase / reporter gene ; result: <20 µM
COc1ccc(N(C)C(=O)[C@H](Cc2cc(F)cc(F)c2)NC(=O)c2ccc(F)c(C(=O)N[C@@H](Cc3cc(F)cc(F)c3)C(=O)N(C)c3ccc(OC)c(F)c3)c2)cc1F ; strain or isolate: NL4-3 ; cells: MT-2 ; read by: luciferase ; result: 0.18 µM
COCc1nc(Nc2ccc(C#N)cc2)nc(Nc2c(C)cc(/C=C(\C)C#N)cc2C)c1C(=O)NCc1ccncc1 ; strain or isolate: L1001+K103N ; cells: MT4 CMV-EGFP ; result: 0.229 µM
COc1cnc(-c2cnccn2)c2[nH]cc(C(=O)C(=O)N3CCC(=C(C#N)c4ccccn4)CC3)c12 ; cells: HeLa ; read by: luciferase ; result: <1 µM
N#CC(=C1CCN(C(=O)C(=O)c2c[nH]c3c(NC(=O)Nc4ccc(C#N)cc4)cccc23)CC1)c1ccccc1 ; cells: HeLa ; read by: luciferase / reporter gene ; result: <1 µM
COCc1nc(Nc2ccc(C#N)cc2)nc(Nc2c(C)cc(/C=C/C#N)cc2C)c1C(=O)N1CCN(CCO)CC1 ; strain or isolate: K103N+Y101C ; cells: MT4 CMV-EGFP ; result: 0.49 µM
CCc1ccc(-c2c(C(OC3(CC)CCC3)C(=O)O)c(C)nc3ccc(Cl)cc23)cc1 ; cells: C8166 ; read by: luciferase / reporter gene ; result: <20 µM
CSc1ccccc1NC(=O)CSc1nnc(C)n1-c1ccc(C)cc1 ; strain or isolate: NL4-3 ; changes: RT-K103N Y181C ; cells: HeLa + HeLa-JC53 ; read by: luciferase ; result: 0.12 µM
COCc1nc(Nc2ccc(C#N)cc2)nc(Nc2c(C)cc(/C=C/C#N)cc2C)c1C(=O)NCCC#N ; strain or isolate: K103N+Y101C ; cells: MT4 CMV-EGFP ; result: 0.0145 µM
COc1ccnc2[nH]cc(C(=O)C(=O)N3C4CCCC3CN(C(=O)c3ccccc3)C4)c12 ; strain or isolate: ZM214 ; cells: TZM-bl ; read by: luciferase ; result: 0.83 µM
COCc1nc(Nc2ccc(C#N)cc2)nc(Nc2c(C)cc(/C=C/C#N)cc2C)c1C(=O)NCc1ccncc1 ; strain or isolate: K103N + Y181C ; cells: MT4 CMV-EGFP ; result: 0.0148 µM
CCc1ccc(-c2c(C(OC3(C)CCCCC3)C(=O)O)c(C)nc3ccc(Cl)cc23)cc1 ; cells: C8166 ; read by: luciferase / reporter gene ; result: <20 µM
COc1cnc(-n2ccc(C)n2)c2[nH]cc(C(=O)C(=O)N3CCC(=C(c4ccccc4)c4nnc(C)o4)CC3)c12 ; cells: HeLa ; read by: luciferase ; result: <1 µM
COC(C(=O)O)c1c(C)nc2ccc(Cl)cc2c1-c1ccc2c(c1)CCO2 ; cells: C8166 ; read by: luciferase / reporter gene ; result: <20 µM
COc1ccc(N(C)C(=O)C(Cc2cc(F)cc(F)c2)NC(=O)c2cccc(C(=O)N[C@@H](Cc3cc(F)cc(F)c3)C(=O)N(C)c3ccc(OC)cc3)c2)cc1 ; strain or isolate: NL4-3 ; cells: MT-2 ; read by: luciferase ; result: 0.04 µM
Cc1nc2ccc(Cl)cc2c(-c2cccs2)c1C(OC(C)C)C(=O)O ; cells: C8166 ; read by: luciferase / reporter gene ; result: <20 µM
COc1ncc(OC)c2c(C(=O)C(=O)N3CCC(=C(C#N)c4coc5ccccc45)CC3)c[nH]c12 ; cells: HeLa ; read by: luciferase ; result: <1 µM
COCc1nc(Nc2ccc(C#N)cc2)nc(Nc2c(C)cc(/C=C/C#N)cc2C)c1C(=O)N1CCN(C)CC1 ; strain or isolate: IIIB ; cells: MT4 CMV-EGFP ; result: 0.024 µM

ECn: concentration that inhibits the pathogen or its effect by n%.